Earlier results on five compounds are cited in patent US12115222B2, “Compositions and methods for improving the solubility of erectile dysfunction therapeutics” (Villya LLC, priority 2023, dated 2024).

Where a SMILES comes first, the peptide text is derived from it.

For this series the following is noted: from the US FDA; cited from earlier work.

Take `CC1=CC(=O)NS(=O)(=O)O1` [Acesulfame Potassium (Ace-K)]: the “Times Sweeter than Sucrose” value is on record as 200.

Take `COC(=O)[C@H](Cc1ccccc1)NC(=O)[C@H](CC(=O)O)NCCCc1ccc(OC)c(O)c1` [Advantame ®, N—[N-[3-(3-hydroxy-4-methoxyphenyl)propyl]-α-aspartyl]-L-phenylalanine-1-methyl ester]: the “Times Sweeter than Sucrose” value is 20,000. On to `COC(=O)[C@H](Cc1ccccc1)NC(=O)[C@@H](N)CC(=O)O` [Aspartame, L-aspartyl-L-phenylalanine methyl ester] (H-Asp-Phe-OMe), for which the “Times Sweeter than Sucrose” value was 200. Turning to `COC(=O)[C@H](Cc1ccccc1)NC(=O)[C@H](CC(=O)O)NCCC(C)(C)C` [Neotame ®], the “Times Sweeter than Sucrose” value is 7,000-13,000. `OC[C@H]1O[C@H](O[C@]2(CCl)O[C@H](CCl)[C@@H](O)[C@@H]2O)[C@H](O)[C@@H](O)[C@H]1Cl` [sucralose, 1,6-dichloro-1,6-dideoxy-β-D-fructofuranosyl-4-chloro-4-deoxy-α-D-galactopyranoside]: the “Times Sweeter than Sucrose” value was 600.
